# Structure probing of HIV-1 leader RNA with DMS

Data from the supplement of Ye et al. 2022, doi:10.1038/s41594-022-00746-2.

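Mutant RNA libraries with 1G, 2G or 3G starts, with or without cap, were folded at 37 °C for 30 min. Monomer and dimer bands were cut from native gels after folding in high salt (300 mM KCl, 5 mM MgCl2) or low salt (40 mM KCl, 0.1 mM MgCl2). Gel slices were treated with 170 mM dimethyl sulfate for 15 min at 37 °C and read by mutational profiling against an ethanol control.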

The 5' region of HIV-1 NL4-3 RNA (positions 1-437):
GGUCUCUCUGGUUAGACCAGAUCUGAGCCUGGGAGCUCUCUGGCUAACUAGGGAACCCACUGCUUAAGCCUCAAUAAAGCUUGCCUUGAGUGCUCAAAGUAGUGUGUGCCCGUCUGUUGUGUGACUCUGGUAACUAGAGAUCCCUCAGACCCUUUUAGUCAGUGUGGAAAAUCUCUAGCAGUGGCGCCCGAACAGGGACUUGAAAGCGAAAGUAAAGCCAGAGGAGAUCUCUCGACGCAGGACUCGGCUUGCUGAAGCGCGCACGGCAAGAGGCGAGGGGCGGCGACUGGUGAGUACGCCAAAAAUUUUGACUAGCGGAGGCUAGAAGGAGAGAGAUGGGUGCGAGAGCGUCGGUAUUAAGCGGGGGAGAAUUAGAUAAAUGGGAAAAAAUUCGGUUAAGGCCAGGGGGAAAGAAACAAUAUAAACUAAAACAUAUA

Scale: normalised reactivity, A and C only; low values point to paired or protected bases, higher values to unpaired ones.
One numbering serves 1G, 2G and 3G.
A position is written with its base.

position,domain,1G uncapped low-salt monomer,2G capped high-salt dimer
A21,TAR,0.60,0.51
A46,TAR,0.09,0.03
A47,TAR,0.24,0.13
A54,TAR,0.22,0.16
C57,TAR,0.61,0.03
A59,PolyA,0.45,0.34
A66,PolyA,0.88,1.09
A67,PolyA,0.64,0.57
C69,PolyA,0.05,0.03
C70,PolyA,0.05,0.03
A73,PolyA,0.05,0.03
A77,PolyA,0.70,0.72
A78,PolyA,0.74,0.62
C80,PolyA,0.34,0.38
A89,PolyA,0.52,0.34
C93,PolyA,0.05,0.03
C109,U5,0.13,0.24
C110,U5,0.14,0.19
A124,none,1.07,0.92
A133,PBS,1.58,1.36
A136,PBS,0.10,0.10
C143,PBS,0.05,0.03
C144,PBS,0.05,0.03
C151,PBS,0.84,0.71
C173,PBS,0.05,0.03
C175,PBS,0.05,0.03
C185,PBS,0.41,0.45
A192,PBS,0.74,0.72
A194,PBS,0.96,0.89
A205,PBS,0.32,0.33
A209,PBS,0.46,0.38
A214,PBS,0.27,0.28
A216,PBS,0.49,0.74
C218,antiPAS,0.05,0.07
A222,antiPAS,0.25,0.31
A225,none,0.69,0.83
A227,CU,0.32,0.20
C258,SL1,0.32,0.22
C264,SL1,0.38,0.18
A268,SL1,0.31,0.15
A269,SL1,0.52,0.22
C281,none,0.37,0.45
C284,SL2,0.19,0.15
C287,SL2,0.27,0.41
A301,none,0.25,0.24
A311,none,1.22,1.25
A319,SL3,0.92,0.89
C322,SL3,0.05,0.03
A345,none,1.22,1.24
A360,none,0.33,0.61
A376,none,0.71,0.74
A378,none,0.22,0.20
A385,none,0.51,0.52
A387,none,0.23,0.23
C393,none,0.61,0.61
A398,none,0.29,0.20
C403,none,0.05,0.03
A410,none,0.32,0.41
A415,none,0.23,0.25
A418,none,0.61,0.63
A419,none,0.41,0.47
A421,none,0.34,0.36
A428,none,0.10,0.09
A431,none,0.57,0.59

Extract of 3 entries:

position	domain	1G uncapped low-salt monomer	2G capped high-salt dimer
A415	none	0.23	0.25
C144	PBS	0.05	0.03
C110	U5	0.14	0.19